Biological target: M. bovis BCG QcrB (UniProt P63886+P9WH23)
Experiment: MIC in M. bovis BCG over-expressing QcrB (pMV261 constructs)

Protein sequences, listed by entry. Tags and fused reporters are not part of them.
UniProt P63886, whole entry, looked up: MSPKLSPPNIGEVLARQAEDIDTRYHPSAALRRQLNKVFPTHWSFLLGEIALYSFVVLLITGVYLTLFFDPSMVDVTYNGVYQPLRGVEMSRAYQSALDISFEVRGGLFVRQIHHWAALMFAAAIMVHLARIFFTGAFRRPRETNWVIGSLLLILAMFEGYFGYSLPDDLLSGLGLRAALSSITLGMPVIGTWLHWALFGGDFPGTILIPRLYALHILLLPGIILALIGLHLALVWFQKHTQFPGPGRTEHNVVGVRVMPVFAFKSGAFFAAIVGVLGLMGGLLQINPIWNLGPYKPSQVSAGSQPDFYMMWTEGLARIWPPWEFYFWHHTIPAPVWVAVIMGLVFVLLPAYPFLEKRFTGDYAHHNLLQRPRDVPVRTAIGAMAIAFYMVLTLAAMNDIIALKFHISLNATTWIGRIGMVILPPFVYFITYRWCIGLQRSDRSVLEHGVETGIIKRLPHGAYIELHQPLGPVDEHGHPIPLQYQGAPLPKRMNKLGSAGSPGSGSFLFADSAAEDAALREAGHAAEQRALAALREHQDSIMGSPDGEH
UniProt P9WH23, whole entry, looked up: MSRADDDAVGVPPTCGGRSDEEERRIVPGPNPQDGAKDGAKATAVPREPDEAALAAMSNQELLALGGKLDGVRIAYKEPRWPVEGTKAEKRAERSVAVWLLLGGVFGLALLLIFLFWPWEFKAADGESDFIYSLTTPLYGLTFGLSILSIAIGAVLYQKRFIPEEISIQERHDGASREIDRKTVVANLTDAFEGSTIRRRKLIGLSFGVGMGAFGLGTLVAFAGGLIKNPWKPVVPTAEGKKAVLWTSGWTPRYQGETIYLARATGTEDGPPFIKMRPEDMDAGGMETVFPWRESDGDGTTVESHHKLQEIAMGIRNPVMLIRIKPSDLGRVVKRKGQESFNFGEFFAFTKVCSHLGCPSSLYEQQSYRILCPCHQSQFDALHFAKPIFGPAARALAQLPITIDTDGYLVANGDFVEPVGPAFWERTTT

Cc1ccc2nc(C)c(C(=O)NCc3ccc(C(F)(F)F)cc3)n2c1 [IP 3, 2,6-Dimethyl-N-(4-(trifluoromethyl)benzyl)imidazo[1,2-a]pyridine-3-carboxamide]
MIC with QcrB over-expression (M. bovis BCG containing pMV261::qcrB, pMV261::qcrCAB or pMV261::ctaE-qcrCAB): > 8 µM | growth of QcrB over-expressing transformants (at 16× MIC, all three inserts including pMV261::qcrB): ample growth
